For at least one entry, the source does not settle the construct or the ends of the probe.

Amino acid sequences for entries named in this document (tags omitted). A change or cut given only in a name is not applied to a line headed by its entry.
UniProt Q2G1N7: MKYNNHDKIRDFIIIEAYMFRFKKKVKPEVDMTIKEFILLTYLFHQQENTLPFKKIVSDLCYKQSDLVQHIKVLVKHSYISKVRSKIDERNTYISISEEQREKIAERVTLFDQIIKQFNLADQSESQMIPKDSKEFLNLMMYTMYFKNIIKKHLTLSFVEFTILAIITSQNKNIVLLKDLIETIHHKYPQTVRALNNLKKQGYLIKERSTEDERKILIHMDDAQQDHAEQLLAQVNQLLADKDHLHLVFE

In this series the target is SarS (rSarS, MW2 type) (Staphylococcus aureus JP018 (same SarS as MW2)) (UniProt Q2G1N7). The series can be described thus: EMSA. As to conditions: recombinant protein; residues 1-250; protein details: His-tag (pET24b); label: Cy3 (5' on T7 promoter-1 primer); probe letters rebuilt from the primers and the genome; part of a longer molecule. On the technique in general: A gel shift assay detects complexes by their altered migration in electrophoresis.

For “GACAGGAAGCATACTGCAAGTGAAGTTGGGAAGTGTTGTTAATACCAAGTAAGTAAGATATCTGAAATGTATAATAGAGTAAAAATGAAATCTTTTTATTATAGACAAATATAAAAAGTGTATAGTAATATATGTATGTATAATTAAATGATAATCATTTCATAATTATTGTATATAACTAAATAACTACTTAACAAAAATAATTATGCTTTAGAGGTGAGCAAA (double strand) [sea promoter 1 probe]”, the binding result is given as “binds”.

(Values after paper PMC10913437.)
